PubChem BioAssay AID1224833 | University of Georgia – 2016

- Assay: 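Host factors restraining rotavirus as candidate antiviral genes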 (primary screen)
- Cells: monkey MA104 kidney cells
- Knock-down reagent: siRNA pool against human genes, 50 nM
- Duration: 48 h knock-down before infection; read 24 h after infection
- Treatment: infection with rotavirus strain RV3 two days after transfection; infectious dose for this stage not given
- Measured: 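z-score of rotavirus antigen signal per well, from a fluorescent immunoassay, relative to non-targeting control wells on the same plate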
- Direction: z-score vs non-targeting control: higher = more rotavirus replication than with non-targeting control
- Rule for the call: In these data the active calls have z-score vs non-targeting control at about -1 or lower, or at about 1 or higher
- Meaning of the calls: active = z-score beyond 1 either way; inactive = z-score within 1 of zero
The whole screen tested about 12,000 reagents; this is a part drawn at random. Over the whole deposit, about 5,600 (46%) got an active call. 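Active calls cover z-scores past 1 in both directions, so they include lowered as well as raised rotavirus replication.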 Entries without a mark were called inactive.

Against EIPR1, the entry reads z-score vs non-targeting control -1.06 (active).
MEF2C gave z-score vs non-targeting control -0.894.
Depletion of TAMM41 came out at: z-score vs non-targeting control -1.92 (active).
Depletion of MRPS18A resulted in: z-score vs non-targeting control -0.575.
Knock-down of HIF1A resulted in: z-score vs non-targeting control -1.16 (active).
RBM25 showed z-score vs non-targeting control -0.557.
After knock-down of ETFB, the record shows z-score vs non-targeting control -1.24 (active).
RPL30 showed z-score vs non-targeting control -0.802.
MYBPC2 gave z-score vs non-targeting control -1.1 (active).
Silencing of MXD3 resulted in: z-score vs non-targeting control 0.41.
For DDX11, the entry reads z-score vs non-targeting control -1.3 (active).

In a second layout: results already given.
Target gene | z-score vs non-targeting control
ETFB | -1.24 (active)
RPL30 | -0.802

Further records:
Knock-down of TSGA13 gave: z-score vs non-targeting control -1.37 (active).
TAF6L gave z-score vs non-targeting control 1.27 (active).
For NLRP8 the deposit lists z-score vs non-targeting control -2.05 (active).
Depletion of KRT85 resulted in: z-score vs non-targeting control 0.173.
SEC14L1 showed z-score vs non-targeting control -0.996.
GPR4 scored z-score vs non-targeting control -1.19 (active).
With knock-down of TKFC the results were z-score vs non-targeting control -0.546.
After knock-down of PLCB3 the results were z-score vs non-targeting control -0.848.
ABCA2 scored z-score vs non-targeting control -0.942.
For FOXP1, the values are z-score vs non-targeting control -1.39 (active).
Against CNEP1R1, the entry reads z-score vs non-targeting control -0.921.
CWH43 gave z-score vs non-targeting control 1.01 (active).
Against KHDC3L the deposit lists z-score vs non-targeting control 1.16 (active).
For GP2, the values are z-score vs non-targeting control 0.0045.
Knock-down of DMD gave: z-score vs non-targeting control -0.419.
For OS9, the entry reads z-score vs non-targeting control -0.933.
Knock-down of COL22A1 gave: z-score vs non-targeting control 1.22 (active).
Against NDFIP2, the values are z-score vs non-targeting control -1.44 (active).
Against BCL6B, the values are z-score vs non-targeting control 0.978.
After knock-down of AKAP8L the results were z-score vs non-targeting control 1.84 (active).
After knock-down of DIXDC1, the record shows z-score vs non-targeting control -1.24 (active).
